A mixed list of measured activities; the numbers were collected in NIAID ChemDB.

All rows: growth or infection tests; organism: HIV-1; read-out: EC50

ECn: concentration that inhibits the pathogen or its effect by n%. An empty or dashed field is not shown. Neighbouring rows are from separate reports. a–b is a range or a potency band.

compound,setting,cell line,strain,mutations,method,result
Cc1cc(C)cc(Cc2c(I)c(=O)[nH]c(=O)n2COCc2ccccc2)c1,-,TZM-bl,SF33,Y188L,p24 / ELISA,0.009 µM
CCCc1cc(=O)oc2c3c(c4c(c12)OC(C)(C)CC4)O[C@@H](C)[C@H](C)[C@@H]3O,-,CEM + CEM-SS,Calanolide A-resistant (RT T139I),RT-T139I,XTT,>27 µM
CC(C)C1=C2[C@H]3CC[C@@H]4[C@@]5(C)CC[C@H](OC(=O)[C@H]6C[C@@H](C(=O)O)C6(C)C)C(C)(C)[C@@H]5CC[C@@]4(C)[C@]3(C)CC[C@@]2([C@@H](O)CNCC2(N)CC2)CC1=O,-,MT-2,92HT599,-,p24 / ELISA,<1 µM
CC(C)=CCOc1cc(NC(=S)c2ccsc2C)ccc1Cl,-,CEM + CEM-SS,NL4-3,RT-V108I,p24,0.006 µM
C#C[C@@]1(CO)C=C[C@H](n2cc(C)c(=O)[nH]c2=O)O1,-,MT-2,Clinical isolate,M41L/D67N/K70R/K103N/L210W/T215F/K219Q,recombinant virus assay,4.845 µM
Cc1ccc(-c2ccc(NC(=O)N3CCC4(CCO4)CC3)cc2)cc1,pseudotyped,TZM-bl,X1632,-,luminescence,>30 µM
CCN1c2ncc(CCOc3ccc(S(=O)(=O)c4cccc(CC(=O)O)c4)cc3C)cc2C(=O)N(C)c2cccnc21,-,C8166,-,RT-K103N Y181C,p24,>0.05 µM
CC(C)C1=C2[C@H]3CC[C@@H]4[C@@]5(C)CC[C@H](OC(=O)[C@H]6C[C@@H](C(=O)O)C6(C)C)C(C)(C)[C@@H]5CC[C@@]4(C)[C@]3(C)CC[C@@]2(CC(=O)NCc2ccc(N3CCS(=O)(=O)CC3)cc2)CC1=O,-,MT-2,92HT599,-,p24 / ELISA,<1 µM
CCCC(C(=O)O)c1c(C)nc2ccc(Cl)cc2c1-c1ccc(C)c(F)c1,-,C8166,-,-,luciferase / reporter gene,<20 µM
COc1cccc2[nH]cc(C(=O)C(=O)N3CCN(C(=O)c4ccccc4)C[C@H]3C)c12,-,MT-2/CXCR4,IIIB,-,virus yield,0.0394 µM
CCN1c2ncc(CCOc3ccc(-c4ccc(CC(=O)O)cc4)cc3C)cc2C(=O)Nc2c(C)ccnc21,-,C8166,IIIB,-,p24,0.01–0.05 µM
COc1ncc(-c2c(C(OC(C)C)C(=O)O)c(C)nc3ccc(Cl)cc23)cn1,-,C8166,-,-,luciferase / reporter gene,<20 µM
CCN1c2ncc(CCOc3ccc(S(=O)(=O)NCC(=O)O)cc3C)cc2C(=O)N(C)c2cccnc21,-,C8166,-,RT-K103N Y181C,p24,>0.05 µM
CC(C)C1=C2[C@H]3CC[C@@H]4[C@@]5(C)CC[C@H](OC(=O)[C@H]6C[C@@H](C(=O)O)C6(C)C)C(C)(C)[C@@H]5CC[C@@]4(C)[C@]3(C)CC[C@@]2(CCNCC(C)(C)NC(=O)C2CCNCC2)CC1=O,-,MT-2,92HT599,-,p24 / ELISA,<1 µM
CCCOC(C(=O)O)c1c(C)nc2ccc(Br)cc2c1-c1ccc(Cl)cc1,-,C8166,-,-,luciferase / reporter gene,<20 µM
Nc1nc(NC2CC2)c2ncn([C@H]3C=C[C@@H](CO)C3)c2n1,-,MT-2,Clinical isolate,M41L/K67N/K70R/Y181C/G190A/L210W/T215Y/K219E,recombinant virus assay,0.4928 µM
CC(C)=CCOc1cc(NC(=S)c2ccsc2C)ccc1Cl,-,CEM + CEM-SS,Isolate NL4-3,-,cytopathic effect / XTT,0.006 µM
CCC[C@@]1(CCc2ccccc2)CC(O)=C([C@H](CC)c2cccc(NS(=O)(=O)c3ccc(C(F)(F)F)cn3)c2)C(=O)O1,-,MT-4,T21729,R41E,reporter gene,2587 nM
CC(C)=CCOc1cc(NC(=S)c2ccoc2C)ccc1Cl,-,CEM + CEM-SS,UC82-R (RT-Y181C),RT-Y181C,cytopathic effect / XTT,1.1 µM
CCN1c2ncc(CCOc3ccc(-c4ccc(CC(=O)O)cc4)cc3)cc2C(=O)N(C)c2cccnc21,-,C8166,IIIB,-,p24,0.01–0.05 µM
Cc1nc2ccccc2c(-c2cc(F)c3c(c2C)CCCO3)c1[C@H](OC(C)(C)C)C(=O)O,-,MT-4,NL4-3,T125V,luminescence,0.011 µM
CCN1c2ncc(CCOc3ccc(-c4cc[n+](C)cc4)cc3C)cc2C(=O)N(C)c2cccnc21.[O-]C(F)(F)F,-,C8166,-,RT-K103N Y181C,p24,<0.01 µM
Cc1cc(CNC(=O)C[C@@]23CC[C@]4(C)[C@H](CC[C@@H]5[C@@]6(C)CC[C@H](OC(=O)[C@H]7C[C@@H](C(=O)O)C7(C)C)C(C)(C)[C@@H]6CC[C@]54C)C2=C(C(C)C)C(=O)C3)c(C)o1,-,MT-2,92HT599,-,p24 / ELISA,<1 µM
CN1c2ccccc2C2C1C=C(C#N)C(=O)N2c1ccc([N+](=O)[O-])cc1,-,HeLa,12AG,-,GFP / fluorescence,0.3 µM
Cc1cccc(-c2c(C(OC(C)C)C(=O)O)c(C)nc3ccc(Cl)cc23)c1,-,C8166,-,-,luciferase / reporter gene,<20 µM
C[C@H]1[C@H](O)[C@@H](C)/C=C/C=C/C=C/C=C/C=C/C=C/C=C/[C@H](O[C@@H]2O[C@H](C)[C@@H](O)[C@H](N)[C@@H]2O)C[C@@H]2O[C@](O)(C[C@@H](O)C[C@@H](O)CC[C@H](O)[C@@H](O)C[C@@H](O)CC(=O)O[C@H]1C)C[C@H](O)[C@H]2C(=O)O,-,PBMC,MDR3761 Primary isolate X4 (SI),-,p24 / RT activity,1.6 µM
CCN1c2ncc(CCOc3ccc(-c4cnc[nH]4)cc3C)cc2C(=O)N(C)c2cccnc21,-,C8166,IIIB,-,p24,<0.01 µM
CC1CC(C)CN(S(=O)(=O)c2ccccc2[N+](=O)[O-])C1,-,HeLa,1617-1,-,GFP / fluorescence,1 µM
CC(C)CC(C(=O)O)c1c(-c2ccc(Cl)cc2)c2cc(Br)ccc2oc1=O,-,C8166,-,-,luciferase / reporter gene,<20 µM
CC(C)C1=C2[C@H]3CC[C@@H]4[C@@]5(C)CC[C@H](OC(=O)[C@H]6C[C@@H](C(=O)O)C6(C)C)C(C)(C)[C@@H]5CC[C@@]4(C)[C@]3(C)CC[C@@]2([C@@H](O)CNC(=O)C(C)(C)NC(=O)c2ccc3nc[nH]c3c2)CC1=O,-,MT-2,92HT599,-,p24 / ELISA,<1 µM
CC(C)CCC[C@@H](C)[C@H]1CCC2C3CCC4C[C@@H](O[C@H]5O[C@H](COS(=O)(=O)[O-])[C@@H](OS(=O)(=O)[O-])[C@H](OS(=O)(=O)[O-])[C@@H]5O[C@H]5O[C@H](COS(=O)(=O)[O-])[C@@H](OS(=O)(=O)[O-])[C@H](O[C@H]6O[C@H](COS(=O)(=O)[O-])[C@@H](OS(=O)(=O)[O-])[C@H](O[C@H]7O[C@H](COS(=O)(=O)[O-])[C@@H](OS(=O)(=O)[O-])[C@H](OS(=O)(=O)[O-])[C@@H]7OS(=O)(=O)[O-])C6OS(=O)(=O)[O-])[C@@H]5OS(=O)(=O)[O-])CC[C@]4(C)C3CC[C@@]21C,-,PBMC,HI92-206 isolate (X4/R5),-,p24 / ELISA / antigen,24 µg/mL
CC(C)C1=C2[C@H]3CC[C@@H]4[C@@]5(C)CC[C@H](OC(=O)[C@H]6C[C@@H](C(=O)O)C6(C)C)C(C)(C)[C@@H]5CC[C@@]4(C)[C@]3(C)CC[C@@]2(CCNCC(C)(C)NC(=O)c2ccc3c(c2)OCO3)CC1=O,-,MT-2,92HT599,-,p24 / ELISA,<1 µM
CCCC(C(=O)O)c1c(C)nc2ccc(Cl)cc2c1-c1ccc(Cl)s1,-,C8166,-,-,luciferase / reporter gene,<20 µM
CC1(C)CC=C(c2cn(-c3nccc(C(=O)NC4CCC(N5CC6CCC(C5)O6)CC4)n3)c3ccc(F)c([C@H](OC(C)(C)C)C(=O)O)c23)CC1,-,MT-4,NL4-3,V165I,luminescence,0.005 µM
CCC(=O)c1ccc(F)c([C@@H]2C[C@@H]2NC(=O)Nc2ccc(C#N)cn2)c1O,-,TZM-bl,LAI,NNRTI-resistant (RT P236L),β-galactosidase / luminescence,0.00063 µM
CCCC(C(=O)O)c1c(-c2ccc(Cl)cc2)c2cc(Cl)ccc2n(CCN)c1=O,-,C8166,-,-,luciferase / reporter gene,<20 µM

Repeating the final 2 entries:

compound | setting | cell line | strain | mutations | method | result
CCC(=O)c1ccc(F)c([C@@H]2C[C@@H]2NC(=O)Nc2ccc(C#N)cn2)c1O | - | TZM-bl | LAI | NNRTI-resistant (RT P236L) | β-galactosidase / luminescence | 0.00063 µM
CCCC(C(=O)O)c1c(-c2ccc(Cl)cc2)c2cc(Cl)ccc2n(CCN)c1=O | - | C8166 | - | - | luciferase / reporter gene | <20 µM